Reference: the supplement of paper PMC3578754

Key:
Experiment in all cases: fold change of IC50 against reference virus; higher = more resistant; Cell-culture drug susceptibility tests of virus bearing the protease of each isolate, gathered from many studies.
[1] = compound: CC(C)(C)NC(=O)[C@@H]1CN(Cc2cccnc2)CCN1C[C@@H](O)C[C@@H](Cc1ccccc1)C(=O)N[C@H]1c2ccccc2C[C@H]1O [indinavir]
[2] = compound: Cc1cccc(C)c1OCC(=O)N[C@@H](Cc1ccccc1)[C@@H](O)C[C@H](Cc1ccccc1)NC(=O)[C@H](C(C)C)N1CCCNC1=O [lopinavir]
[3] = compound: CC(C)(C)NC(=O)[C@@H]1C[C@@H]2CCCC[C@@H]2CN1C[C@@H](O)[C@H](Cc1ccccc1)NC(=O)[C@H](CC(N)=O)NC(=O)c1ccc2ccccc2n1 [saquinavir]
[4] = compound: CC(C)c1nc(CN(C)C(=O)N[C@H](C(=O)N[C@@H](Cc2ccccc2)C[C@H](O)[C@H](Cc2ccccc2)NC(=O)OCc2cncs2)C(C)C)cs1 [ritonavir]
[5] = compound: Cc1c(O)cccc1C(=O)N[C@@H](CSc1ccccc1)[C@H](O)CN1C[C@H]2CCCC[C@H]2C[C@H]1C(=O)NC(C)(C)C [nelfinavir]

| Test System | fold change of IC50 against reference virus [1] | fold change of IC50 against reference virus [2] | fold change of IC50 against reference virus [3] | fold change of IC50 against reference virus [4] | fold change of IC50 against reference virus [5] |
| --- | --- | --- | --- | --- | --- |
| HIV-1 isolate 671 (protease changes: L63Q, study 15) | 0.6 | 0.5 | 0.6 | 0.6 | 0.8 |
| HIV-1 isolate 713 (protease changes: L10I K20R M36I M46L I54V Q58E I62V L63P A71V V82A L90M, study 116) | 22 | 33 | 7.1 | 79 | 43 |
| HIV-1 isolate 720 (protease changes: T12N E35D L63Q I64V, study 15) | 0.4 | 0.3 | 0.3 | 0.3 | 0.4 |
| HIV-1 isolate 721 (protease changes: L10S I13V K14R K20I A22T E35D M36I R41K L63P H69K V82I L89M, study 114) | 1.3 | 2.1 | 2.3 | 3.9 | 3.9 |
| HIV-1 isolate 746 (protease changes: L38V R57K D60E Q61E L63P A71V I72V V77I I93L, study 109) | 0.9 | 0.6 | 1 | 0.8 | 1.1 |
| HIV-1 isolate 748 (protease changes: L10I L23I M46L I54V R57K L63P A71V V82A I84V L90M Q92K, study 145) | 5 | 21 | 38 | 77 | 17 |
| HIV-1 isolate 760 (protease changes: L10I K14R L24I M46I I54V L63P H69Q A71V V77I V82A I93M, study 116) | 19 | 17 | 1.8 | 45 | 19 |
| HIV-1 isolate 778 (protease changes: L10F I84V, study 30) | 3.2 | 7.7 | 3.7 | 4 | 3.4 |
| HIV-1 isolate 794 (protease changes: L10I I15V G16E K20R E35D M36I R41K I54A R57K Q61D A71V I72R V82A L89I L90M Q92K, study 109) | 139 | 108 | 66 | 197 | 136 |
| HIV-1 isolate 800 (protease changes: L10I E35D P39Q Q61E L63P A71T I93L, study 15) | 0.9 | 0.6 | 0.7 | 0.8 | 1.4 |
| HIV-1 isolate 806 (protease changes: I13V R41K I64V H69Y, study 15) | 0.6 | 0.7 | 0.5 | 0.7 | 0.8 |
| HIV-1 isolate 812 (protease changes: L10F I15V K20V L23I E35D M36I N37D M46I I50V L63P A71V V82T I85V L89V L90M, study 15) | 18 | 100 | 18 | 140 | 19 |
| HIV-1 isolate 824 (protease changes: R41K A71T V77I, study 15) | 1 | 0.7 | 0.9 | 1 | 1.6 |
| HIV-1 isolate 838 (protease changes: L63A, study 109) | 0.4 | 0.5 | 0.5 | 0.5 | 0.5 |
| HIV-1 isolate 839 (protease changes: N37E D60E I64V, study 7) | 1.1 | 1 | 1 | 1.2 | 1.6 |
| HIV-1 isolate 849 (protease changes: I13V K14R K20I E35D M36I R41K K43R I64M H69K L89M, study 114) | 0.8 | 1 | 1 | 1.4 | 1.2 |
| HIV-1 isolate 875 (protease changes: L10I I13V K20I E35D M36I R41K H69K V82I L89M, study 114) | 1.8 | 1 | 1 | 1.7 | 1.8 |
| HIV-1 isolate 884 (protease changes: T12S I15V L19I M36I R41K L63P H69K L89M I93L, study 114) | 0.5 | 0.4 | 0.5 | 0.4 | 0.6 |
| HIV-1 isolate 886 (protease changes: L10V L23I F53L I54V R57K L63P A71V V82A L90M, study 145) | 6.3 | 26 | 20 | 65 | 15 |
| HIV-1 isolate 905 (protease changes: T12S K14R I15V L19T M36V R41K L63P H69K L89M I93L, study 114) | 1.6 | 0.1 | 1.5 | 1.5 | 1.6 |
| HIV-1 isolate 911 (protease changes: T12P K14R E35D R41K I62V L63P G68E A71T V77I I93L, study 65) | 0.5 | 0.4 | 0.7 | 0.5 | 0.9 |
| HIV-1 isolate 919 (protease changes: L10M I13V Q18H N37D M46I K55R Q61H L63P A71T I72T V77I N88S L90M I93L, study 8) | 15.7 | 0.7 | 3.4 | 4.5 | 54.7 |

Fold change is the IC50 on the isolate divided by the IC50 on a reference virus; 1 = unchanged, higher = more resistant. Changes are given against the subtype B consensus. No active / inactive call. The values were gathered from many studies (numbered anew) with different assays, which the source does not name. Most viruses are clinical isolates; some are laboratory strains or clones with known resistance changes. Isolates with mixed residues are left out; stretches that were not sequenced show no change. Round top values that many isolates share are read here as limits; other very high values and 0.1 may be limits too. The protease changes I3V and N37S, insertions and deletions cannot be read from the source.
